Compound potency records, mixed from different reports. Data source: NIAID ChemDB in PubChem.

Shared fields: growth or infection tests; species: Hepatitis B virus; endpoint: EC50

Two numbers with a dash give a range or band.

SMILES,strain,read by,value
O=c1[nH]c(=O)n([C@H]2C[C@H](F)[C@@H](CO)O2)cc1CO,,,5–10 µg/mL
Nc1nc(N)c2ncn([C@H]3CO[C@@H](CO)O3)c2n1,WILD TYPE,,79 µM
C[C@H](Cn1cnc2c(N)ncnc21)OCP(=O)(O)O,Genotype A,antigen / luminescence,0.034 µM
O[C@@H]1C(n2c(Cl)nc3cc(Cl)c(Cl)cc32)OC[C@@H]1O,,,80 µM
N#Cc1cn([C@H]2CC[C@@H](CO)C2)c2ncnc(N)c12,,,3 µM
CCCCCCC(=O)CCCCCC/C=C/CC(O)C(O)C(N)(CO)C(=O)O,,,5 µM
O=C(N/C(C(=O)N1CCCCC1)=C(/Cl)c1ccccc1)c1ccccc1,,,21.2 µM
Cc1cn([C@@H]2C[C@@H](O)[C@H](CO)O2)c(=O)[nH]c1=O,M204V,,0.85 µM
CC(C)CO[C@H]1O[C@@H]2OC3(C)CC[C@H]4[C@H](C)CCC([C@H]1C)[C@@]24OO3,,PCR,<0.1 µM
Nc1ccn([C@@H]2CS[C@H](CO)O2)c(=O)n1,Genotype A,antigen / luminescence,0.17 µM
Nc1ccn([C@@H]2CC[C@H](CO)O2)c(=O)n1,,,0.01 µM
CCCCC(=O)SCCOP(=O)(OCCOCn1cnc2c(=O)[nH]c(N)cc21)OCCSC(=O)CCCC,,,0.2 µM
Nc1ncnc2c1ncn2CCOCP(=O)(O)O,M204I,,1.71 µM
Nc1ccn([C@@H]2CS[C@H](CO)O2)c(=O)n1,,,0.064 µM
Nc1ncnc2c1ncn2CCOCP(=O)(O)O,DUAL,,0.64 µM
CCCc1cc(=O)oc2cc(OCC(C)(C)C(=O)OC)c3c(c12)OC(C)(C)C=C3,,hybridisation,4 µg/mL

For reference, 2 entries again:

SMILES,strain,read by,value
CCCCC(=O)SCCOP(=O)(OCCOCn1cnc2c(=O)[nH]c(N)cc21)OCCSC(=O)CCCC,,,0.2 µM
Cc1cn([C@@H]2C[C@@H](O)[C@H](CO)O2)c(=O)[nH]c1=O,M204V,,0.85 µM

Neighbouring rows are from separate reports. Blank or dashed fields: not listed here. ECn: concentration that inhibits the pathogen or its effect by n%.